Compound potency records, mixed from different reports. Data source: NIAID ChemDB in PubChem.

Common to all: tests in culture

Rows are shuffled and stem from different studies. Inhibition is in % at the dose shown (toxicity tests: loss of growth or viability). An empty or dashed field is not shown. ECn: concentration that inhibits the pathogen or its effect by n%. Fold resistance: result on the changed form divided by that on wild type.

compound | organism | strain or isolate | mutations | cells | method | measure | tested at | value
CCOC(=O)CC1COP(=O)(CO[C@H](C)Cn2cnc3c(N)ncnc32)OC1 | Hepatitis B virus | Genotype D | - | PHH | PCR | inhibition | 1 µM | ≤30%
COc1ccc2c(O[C@@H]3C[C@H]4C(=O)N[C@]5(C(=O)NS(=O)(=O)C6CC6)C[C@H]5/C=C\CCCCN(C)C(=O)[C@@H]4C3)cc(-c3nc(C(C)C)cs3)nc2c1C | Hepatitis C virus | 1b | - | Huh7 | luciferase / replicon | inhibition | 0.006 µM | 91.86%
CC(C)OC(=O)[C@H](C)N[P@](=O)(CO[C@H](C)Cn1cnc2c(N)ncnc21)Oc1ccccc1 | Hepatitis B virus | Genotype D | - | PHH | PCR | inhibition | 1 µM | ≤30%
C[C@@]1(O)[C@H](O)[C@@H](CO)O[C@H]1n1ccc2c(N)ncnc21 | Hepatitis C virus | - | - | HepG2-5B | MTT | inhibition | 10 µg/mL | 0%
COc1ccc2c(O[C@@H]3C[C@H]4C(=O)N[C@]5(C(=O)O)C[C@H]5/C=C\CCCCC[C@H](NC(=O)OC5CCCC5)C(=O)N4C3)cc(-c3csc(NC(C)C)n3)nc2c1 | Hepatitis C virus | Con1 | A156T | 1C | luciferase | fold resistance | - | >410
C[C@H](Cn1cnc2c(N)ncnc21)OCP(=O)(O)O | Hepatitis B virus | Genotype D | - | HepaRG | PCR | inhibition | 1 µM | ≤30%
C=CC(=O)NCC(=O)N1C[C@H](Oc2nccc3ccc(Br)cc23)C[C@H]1C(=O)N[C@]1(C(=O)NS(=O)(=O)C2CC2)C[C@H]1C=C | Hepatitis C virus | 1b A156T | - | - | luciferase | EC50 | - | 0.208 µM
COc1ccc2c(O[C@@H]3C[C@H]4C(=O)N[C@]5(C(=O)NS(=O)(=O)C6CC6)C[C@H]5/C=C\CCCCN(C)C(=O)[C@@H]4C3)cc(-c3nc(C(C)C)cs3)nc2c1C | Hepatitis C virus | 452 | - | Huh7.5 | antigen | EC50 | - | 2.599 µM
Nc1ncnc2c1ncn2CCOCP(=O)(O)O | Hepatitis B virus | Mutation M550I | - | HepG2 | - | EC50 | - | 0.31 µM
C[C@@]1(O)[C@H](O)[C@@H](CO)O[C@H]1n1cnc2c(N)ncnc21 | Hepatitis C virus | Con1 | S282T | 1C | luciferase | fold resistance | - | 41
CCC(CCC(C)C1CCC2C3C[C@@H](O)[C@@]4(O)C[C@@H](O)CCC4(C)C3CCC12C)C(C)C | Hepatitis B virus | - | - | HepG2 2.2.15 | antigen | inhibition | 25 µg/mL | 34.3%
CC[C@H]1C[C@]1(NC(=O)[C@@H]1C[C@@H]2CN1C(=O)[C@H](C(C)(C)C)NC(=O)OCC(C)(C)CCCCc1cccc3c1CN(C3)C(=O)O2)C(=O)NS(=O)(=O)C1CC1 | Hepatitis C virus | S52 | - | Huh7.5 | antigen | EC50 | - | 1.662 µM
C[C@@]1(O)[C@H](O)[C@@H](CO)O[C@H]1c1coc2c(N)ncnc12 | Hepatitis C virus | - | - | Hep3B-T5B | MTT | inhibition | 2 µg/mL | 0.13%
CC(C)(CO)C(=O)SCCOP(=O)(NCc1ccccc1)OC[C@H]1O[C@@H](n2cnc3c(=O)[nH]c(N)nc32)[C@](C)(O)[C@@H]1O | Hepatitis C virus | GT1a | Y93C | Replicon cells | replicon | fold resistance | - | 1.06
Nc1ccn([C@@H]2CS[C@H](CO)O2)c(=O)n1 | Hepatitis B virus | Mutation M552V | - | Huh7 | - | EC50 | - | 33 µM
CCOC(=O)CC1COP(=O)(CO[C@H](C)Cn2cnc3c(NC(=O)C(C)C)ncnc32)OC1 | Hepatitis B virus | Genotype D | - | PHH | PCR | inhibition | 1 µM | ≤30%
Clc1ccc(Cn2c(CN3CCCC3)nc3ccccc32)cc1 | Hepatitis C virus | 1b Con1 | - | Huh7 | luciferase / replicon | inhibition | 20 µM | 72.57%
CC(C)OC(=O)[C@H](C)N[P@](=O)(OC[C@H]1O[C@@](C#N)(c2ccc3c(N)ncnn23)[C@](C)(O)[C@@H]1OC(=O)C(C)C)Oc1ccccc1 | Hepatitis C virus | 1b Con1 | R155K | 1C | luciferase | fold resistance | - | 0.93
CC(C)OC(=O)CC1COP(=O)(CO[C@H](C)Cn2cnc3c(NC(=O)C(C)C)ncnc32)OC1 | Hepatitis B virus | Genotype D | - | PHH | PCR | inhibition | 1 µM | ≤30%

2 of the rows above, restated:

compound,organism,strain or isolate,mutations,cells,method,measure,tested at,value
C[C@@]1(O)[C@H](O)[C@@H](CO)O[C@H]1c1coc2c(N)ncnc12,Hepatitis C virus,-,-,Hep3B-T5B,MTT,inhibition,2 µg/mL,0.13%
CCOC(=O)CC1COP(=O)(CO[C@H](C)Cn2cnc3c(N)ncnc32)OC1,Hepatitis B virus,Genotype D,-,PHH,PCR,inhibition,1 µM,≤30%